The data set concerns elongation factor-2 (EF-2).

For the substance wild type DT382 (chain not printed), the IVTT Activity amounted to 1 and the Relative Activity (IVTT) was determined as 1.

These data come from patent US20160009768.
